Results of unrelated studies side by side (data: NIAID ChemDB).

All rows: toxicity to cultured cells; cell line: C8166; read-out: CC50

Rows are shuffled and stem from different studies. CCn: concentration that lowers growth or viability of the cells by n%. An empty or dashed field is not shown.

O=C(/C=C/c1ccc(O)cc1)OC[C@H]1O[C@@H](Oc2c(-c3ccc(O)cc3)oc3cc(O)cc(O)c3c2=O)[C@H](O)[C@@H](O)[C@@H]1O ; result: >200 µg/mL
CC[C@@]1(O)C(=O)OCc2c1cc1n(c2=O)Cc2c-1nc1ccccc1c2CO ; read by: MTT ; result: 0.1585 µg/mL
CS(=O)(=O)O[C@H]1C[C@H](n2ccc(=O)[nH]c2=O)O[C@@H]1COP(=O)(OCC(Cl)(Cl)Cl)OCC(Cl)(Cl)Cl ; result: >100 µM
O=C(/C=C/c1ccc(O)c(O)c1)OC1C[C@@](O)(C(=O)O)C[C@H](O)[C@@H]1O ; read by: MTT ; result: >200 µg/mL
Cc1cn([C@H]2C[C@H](N=[N+]=[N-])[C@@H](COP(=O)(Oc3ccc([N+](=O)[O-])cc3)Oc3ccc([N+](=O)[O-])cc3)O2)c(=O)[nH]c1=O ; result: 40 µM
COC(=O)c1cc(O)c(OS(=O)(=O)[O-])c(OC)c1.[Na+] ; read by: MTT ; result: >200 µg/mL
Cc1cn([C@H]2C[C@H](N=[N+]=[N-])[C@@H](COP(=O)(Oc3ccc(C#N)cc3)Oc3ccc(C#N)cc3)O2)c(=O)[nH]c1=O ; result: 500 µM
CO[C@H]1/C=C/O[C@@]2(C)Oc3c(C)c(O)c4c(c3C2=O)C(=O)C(SCCOC(=O)CCCC(=O)OC[C@@H]2O[C@H](n3cc(C)c(=O)[nH]c3=O)C[C@H]2N=[N+]=[N-])=C(NC(=O)/C(C)=C\C=C\[C@H](C)[C@@H]2OC(C)(C)O[C@@H]([C@@H](C)[C@H](OC(C)=O)[C@@H]1C)[C@@H]2C)C4=O ; result: >30 µM
OC[C@H]1O[C@@H](Oc2cc(O)c3c(c2)O[C@H](c2ccc(O)c(O)c2)[C@@H](O)C3)[C@H](O)[C@@H](O)[C@@H]1O ; read by: MTT ; result: 166 µg/mL
COc1ccc(-c2c[nH]c(=S)n2NC(=S)Nc2ccc(Cl)cc2)cc1 ; read by: MTT ; result: 100.9 µM
CC(C)(O)C(=O)Cc1cc2ccc(=O)oc2cc1O ; read by: MTT ; result: >200 µM
COc1cc(O)ccc1O[C@@H]1O[C@H](CO)[C@@H](O)[C@H](O)[C@H]1O ; read by: MTT ; result: >200 µg/mL
CN(C)C(=O)[C@@H](NC(=O)Cc1ccccc1)[C@@H]1N[C@@H](C(=O)NCCNC(=O)[C@@H]2N[C@@H]([C@H](NC(=O)Cc3ccccc3)C(=O)N(C)C)SC2(C)C)C(C)(C)S1 ; result: >100 µM
Cc1ccc(OC2=C(C=O)CC[C@@H]3[C@H]4CCCN5CCC[C@@H](CN23)[C@@H]45)cc1 ; read by: MTT ; result: 78.51 µg/mL
COc1cc([C@H]2c3cc(O)c(OC)cc3C[C@@H](CO)[C@@H]2COS(=O)(=O)[O-])ccc1O.[Na+] ; read by: MTT ; result: 143 µg/mL
S=C(Nc1cccc2ccccc12)Nn1c(-c2ccc(Cl)cc2)c[nH]c1=S ; read by: MTT ; result: 105 µM
Cc1cn([C@H]2C[C@H](OS(C)(=O)=O)[C@@H](COP(=O)(OCC(Cl)(Cl)Cl)OCC(Cl)(Cl)Cl)O2)c(=O)[nH]c1=O ; result: >100 µM
CC1(C)S[C@H]([C@H](NC(=O)Cc2ccccc2)C(=O)NCC(F)(F)F)N[C@H]1C(=O)NCCNC(=O)[C@@H]1N[C@@H]([C@H](NC(=O)Cc2ccccc2)C(=O)NCC(F)(F)F)SC1(C)C ; result: >100 µM
NC(=O)c1nn([C@@H]2O[C@H](CO)[C@@H](O)[C@H]2O)cc1N ; result: >1840 µM
O=CC1=C(Oc2ccccc2)N2C[C@@H]3CCCN4CCC[C@@H]([C@H]34)[C@H]2CC1 ; read by: MTT ; result: 155 µg/mL
Cc1ccccc1NC(=S)Nn1c(-c2ccc(-c3ccccc3)cc2)c[nH]c1=S ; read by: MTT ; result: 65.78 µM
CO[C@H]1/C=C/O[C@@]2(C)Oc3c(C)c(O)c4c(c3C2=O)C(=O)C(SCCOC(=O)CCC(=O)OC[C@H]2O[C@@H](n3cc(C)c(=O)[nH]c3=O)CC2O)=C(NC(=O)/C(C)=C\C=C\[C@H](C)[C@H](O)[C@@H](C)[C@@H](O)[C@@H](C)[C@H](OC(C)=O)[C@@H]1C)C4=O ; result: >30 µM
CC(C)(C)NC(=O)[C@@H]1C[C@@H]2CCCC[C@@H]2CN1C[C@@H](O)[C@H](Cc1ccccc1)NC(=O)[C@H](CC(N)=O)NC(=O)c1ccc2ccccc2n1 ; result: 20 µM
C=CC(C)(C)c1cc2cc(C[C@@H](O)C(C)(C)O)c(O)cc2oc1=O ; read by: MTT ; result: >200 µM
CC1(C)S[C@H]([C@H](NC(=O)Cc2ccccc2)C(=O)NCC2CCCCC2)N[C@H]1C(=O)NCCNC(=O)[C@@H]1N[C@@H]([C@H](NC(=O)Cc2ccccc2)C(=O)NCC2CCCCC2)SC1(C)C ; result: >100 µM
CC(C)[C@H](NC(=O)c1ccc2ccccc2n1)C(=O)N[C@@H](Cc1ccccc1)[C@H](O)CN1CC[C@@H](OCc2ccncc2)C[C@H]1C(=O)NC(C)(C)C ; read by: MTT ; result: 32 µM
CCOC(=O)NC1=C2C(CC[C@@H]3C[C@H](OC(=O)c4ccccc4)CC[C@]23C)C2CC[C@H](C(C)CCC(=O)OC)[C@@]2(C)C1=O ; result: 100 µM
Cc1ccccc1NC(=S)Nn1c(-c2ccc(Br)cc2)c[nH]c1=S ; read by: MTT ; result: 27.14 µM
NC(=O)c1nn([C@@H]2O[C@H](CO)[C@@H](O)[C@H]2O)cc1I ; result: 8 µM
O=c1c(O)c(-c2ccc(O)c(O)c2)oc2cc(OC3OC(CO)C(O)C(O)C3O)cc(O)c12 ; result: >250 µg/mL
Cc1ccc(-c2c[nH]c(=S)n2NC(=S)Nc2ccccc2C)cc1 ; read by: MTT ; result: 110 µM
O=C(OCC1OC(OCCc2ccccc2)C(O)C(O)C1O)c1cc(O)c(O)c(O)c1 ; result: 200 µg/mL
NC(=NCCCCCCN=C(N)/N=C(\N)Nc1ccc(Cl)cc1)/N=C(\N)Nc1ccc(Cl)cc1 ; result: >10 µg/mL
COc1ccc(-c2c[nH]c(=S)n2NC(=S)Nc2ccc(Br)cc2)cc1 ; read by: MTT ; result: 25.14 µM
CCNC(=O)[C@@H](NC(=O)Cc1ccccc1)[C@@H]1N[C@@H](C(=O)NCCNC(=O)[C@@H]2N[C@@H]([C@H](NC(=O)Cc3ccccc3)C(=O)NCC)SC2(C)C)C(C)(C)S1 ; result: >100 µM
C=C(C)[C@H](O)COc1cc(OC)c2c(c1)C(=O)c1c(O)ccc(O)c1-2 ; read by: MTT ; result: >200 µg/mL
O=c1c(O[C@@H]2O[C@H](CO)[C@@H](O)[C@H](O)[C@H]2O)c(-c2ccc(O)cc2)oc2cc(O)cc(O)c12 ; result: >200 µg/mL
CSc1ccc(OP(=O)(OC[C@H]2O[C@@H](n3cc(C)c(=O)[nH]c3=O)C[C@@H]2N=[N+]=[N-])Oc2ccc(SC)cc2)cc1 ; result: 500 µM
CC(=O)O[C@H]1C[C@H](n2cc(C)c(=O)[nH]c2=O)O[C@@H]1CO ; result: >100 µM
CCCCCCCCCc1ccc(OCCOCCOCCOCCOCCOCCOCCOCCOCCO)cc1 ; result: >10 µg/mL
CCCCCn1nnc2c(C)nn([C@@H]3O[C@H](CO)[C@@H](O)[C@H]3O)c2c1=O ; result: 280 µM
O=Cc1ccc(O/C=C2/CC[C@@H]3[C@H]4CCCN5CCC[C@@H](CN3C2=O)[C@@H]45)cc1 ; read by: MTT ; result: 98.97 µg/mL
C=C(C)[C@@H]1Cc2c(cc3oc(=O)ccc3c2O)O1 ; read by: MTT ; result: >200 µM
Cc1cc(O)c2c(c1)C(=O)c1cc(O)cc(O[C@@H]3O[C@H](CO)[C@@H](O)[C@H](O)[C@H]3O)c1C2=O ; read by: MTT ; result: >200 µg/mL
Cc1ccc(-c2c[nH]c(=S)n2NC(=S)Nc2ccc(Cl)cc2)cc1 ; read by: MTT ; result: 105 µM
CO[C@H]1/C=C/O[C@@]2(C)Oc3c(C)c(O)c4c(c3C2=O)C(=O)C(SCCOC(=O)CCCC(=O)OC[C@@H]2O[C@H](n3cc(C)c(=O)[nH]c3=O)C[C@H]2N=[N+]=[N-])=C(NC(=O)/C(C)=C\C=C\[C@H](C)[C@H](O)[C@@H](C)[C@@H](O)[C@@H](C)[C@H](OC(C)=O)[C@@H]1C)C4=O ; result: >30 µM
C=C(C)[C@@H]1Cc2cc3ccc(=O)oc3cc2O1 ; read by: MTT ; result: >200 µM
NC(=O)c1nn([C@@H]2O[C@H](CO)[C@@H](O)[C@H]2O)cc1Br ; result: 4 µM

A second listing of 5 rows from above:

structure | read by | result
OC[C@H]1O[C@@H](Oc2cc(O)c3c(c2)O[C@H](c2ccc(O)c(O)c2)[C@@H](O)C3)[C@H](O)[C@@H](O)[C@@H]1O | MTT | 166 µg/mL
C=C(C)[C@@H]1Cc2c(cc3oc(=O)ccc3c2O)O1 | MTT | >200 µM
Cc1cc(O)c2c(c1)C(=O)c1cc(O)cc(O[C@@H]3O[C@H](CO)[C@@H](O)[C@H](O)[C@H]3O)c1C2=O | MTT | >200 µg/mL
COc1cc([C@H]2c3cc(O)c(OC)cc3C[C@@H](CO)[C@@H]2COS(=O)(=O)[O-])ccc1O.[Na+] | MTT | 143 µg/mL
CCOC(=O)NC1=C2C(CC[C@@H]3C[C@H](OC(=O)c4ccccc4)CC[C@]23C)C2CC[C@H](C(C)CCC(=O)OC)[C@@]2(C)C1=O | - | 100 µM